{"source": "patent US10556926B2", "about": "“Synthetic artificial peptides with antimicrobial effect” (priority 2014, dated 2020)", "note": "No end group written: not given here.", "data": [{"tested_on": "Staphylococcus xylosus", "conditions": "LD50/MIC; LD50 of 128 used where LD50 above measured range; parentheses: MTC established but no LD50", "protocol": "The minimum inhibitory concentration (MIC) of the peptides was carried out by way of example against gram(−) E. coli DH5α (and gram(+) Staphylococcus xylosus (both Deutsche Sammlung von Mikroorganismen and Zellkulturen, DSMZ) in a standardized microdilution method according to the general guidelines of the CLSI (Clinical and Laboratory Standards Institute 2006) and EUCAST (European Committee for Antimicrobial Susceptibility Testing of the European Society of Clinical Microbiology and Infectious Diseases 2003) with slight adaptations to the investigation of cationic antimicrobial peptides (Wiegand et al. 2008). The bacteria cells were cultivated in Mueller-Hinton-Boullion (MHB) to an optical density of 0.4 to 0.6 at 600 nm wavelength, corresponding to about 4·10^8 bacteria per ml. Then, the bacteria cultures were diluted to a bacteria concentration of about 1·10^5 bacteria per ml in sterile MHB. Using the peptides, series of 2-fold dilutions starting at 128 μM to the smallest dilution of 0.5 μM in MHB were prepared. The peptide dilutions were mixed with the dilute bacteria cultures in a […] in the chambers of a 96-well polypropylene microtiter plate (Starlab, Hamburg, Germany), so that the peptides were present in an end concentration between 64 μM and 0.25 μM at a bacteria concentration of 5·10^4 bacteria/ml. Sterile MHB served as negative control, and the positive control used as the corresponding bacteria concentration in MHB without the addition of peptide. The microtiter plates were incubated for 18 hours at 37° C. with shaking at 120 rpm in a climatically controlled chamber. After the incubation, the bacteria concentration was determined by renewed absorption measurement at a wavelength of 600 nm.", "values": [{"substance": "MPRRRRSSSRPVRRRRRPRVSRRRRRRGGRRR (Protamine)", "Therapeutic ratio S. xylosus": "(256)"}, {"substance": "KILILIKRK-OH [N4]", "Therapeutic ratio S. xylosus": 3.6}, {"substance": "KRKRKILILIKRK-OH [N1]", "Therapeutic ratio S. xylosus": 72}]}]}
